# Reference: patent EP0926242A1, “GLIOTOXIN DERIVATIVES AND ANTICANCER AGENT COMPRISING THE SAME” (priority 1996, dated 1998)
# Tested on: mouse carcinoma of the colon cells colon 26
# Experiment: Anticancer effect in vivo against colon 26 (Example 9 A)
# Settings: CDFI mice
# Method: • (A) Evaluationin vivo using mouse carcinoma of the colon cells colon 26 CDFI mice (female : 4 weks age) were bought, and colon 26 subcultured in the subcutaneous tissue of the mouse was taken out, and cut into small pieces by a scissors. The cancer cells were transplanted into subcutaneous tisue of CDFI mice by a trucker. The day was assigned 0 day, and the tumor was measured by a slide caliper after 7 days. The volume of the tumor was calculated, and divided into groups (each group : n = 4). The text compound was dissolved in dimethylsulfoxide, and diluted with 5 % Tween 80- saline aqueous solution. […] The administration was carried out after 7 days, after 11 days and after 15 days or after 7 days and after 8 days from the transplantation at a rate of once per one day. 21st day from the transplantation, the volume of tumor was measured and the volume of tumor and the inhibition against tumor multiplication rate (I.R.) were calculated. The volume of tumor was calculated by the following formula. (Tumore Volume [mm)^3 (]= Minor Axis [mm])^2 × Major Axis [mm] × (1/2) [formula] • The inhibition against tumor multiplication rate (I.R.) was calculated by the following formula. I.R. [%] = {1- (Average Tumor Volume of Administration Group / Average Tumor Volume of Control Group)) × 100 [formula] • (B) Evaluation in vivo using human carcinoma of the colon cells HCT-116 Balb/c nu/nu mice (female : 5 weks age) were bought, and HCT-116 (Dainippon Seiyaku) subcultured in the subcutaneous tissue of the mouse was taken out, and cut into small pieces by a scissors. The cancer cells were transplanted into subcutaneous tissue of […] mice by a trucker. The day was assigned 0 day, and the tumor was measured by a slide caliper after 7 days. The volume of the tumor was calculated, and divided into groups (each group : n = 2). The text compound was dissolved in dimethylsulfoxide, and diluted with 5 % Tween 80- saline aqueous solution. […] The administration was carried out after 7 days, after 11 days and after 15 days from the transplantation at a rate of once per one day. 21st day from the transplantation, the volume of tumor was measured and the volume of tumor and the inhibition against tumor multiplication rate (I.R.) were calculated by the above formulas.
# [1] = 2.5[mg/kg]×3 (i.p.), 7,11,15th days
# [2] = 5 [mg/kg]×3 (i.p.), 7,11,15th days
Structure (SMILES),day of I.R.Max [1],day of I.R.Max [2],"day of I.R.Max (10 [mg/kg]×2 (i.p.), 7,8th days)","day of I.R.Max (10 [mg/kg]×2 (i.v.), 7, 14th days)"
CC(=O)OC1C=CC=C2CC34SSC(CO)(C(=O)N3C21)N(C)C4=O (stereo not drawn) [acetylgliotoxin],10 days,9 days,10 days,–
"COc1cccc2c1C(=O)c1c(O)c3c(c(O)c1C2=O)C[C@@](O)(C(=O)CO)C[C@@H]3O[C@H]1C[C@H](N)[C@H](O)[C@H](C)O1 [Adriamycin, reference compound]",–,–,–,21 days
"CN1C(=O)[C@]23Cc4ccccc4N2C(=O)[C@]1(CO)SS3 [Compound of Example 3, (3S, 10aR)―2,3-dihydro―3―(hydroxymethyl)―2― methyl―10H―3,10a―epidithiopyrazino[1,2―a]indole― 1,4―dione]",8 days,8 days,–,–
